Experimental data taken from patent US7964624B1, “Inhibitors of serine proteases” (priority 2005, dated 2011).

By UniProt entry, the sequences of proteins in these tests, tags left out. Chains listed by the source or under a name are the forms on record and can include a tag or linker. Residues count along the entry.
UniProt P27958, 1658-1711 partner limits assumed: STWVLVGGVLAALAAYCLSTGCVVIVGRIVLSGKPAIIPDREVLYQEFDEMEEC
UniProt P27958, 1027-1711 with tags or gaps with the stated changes: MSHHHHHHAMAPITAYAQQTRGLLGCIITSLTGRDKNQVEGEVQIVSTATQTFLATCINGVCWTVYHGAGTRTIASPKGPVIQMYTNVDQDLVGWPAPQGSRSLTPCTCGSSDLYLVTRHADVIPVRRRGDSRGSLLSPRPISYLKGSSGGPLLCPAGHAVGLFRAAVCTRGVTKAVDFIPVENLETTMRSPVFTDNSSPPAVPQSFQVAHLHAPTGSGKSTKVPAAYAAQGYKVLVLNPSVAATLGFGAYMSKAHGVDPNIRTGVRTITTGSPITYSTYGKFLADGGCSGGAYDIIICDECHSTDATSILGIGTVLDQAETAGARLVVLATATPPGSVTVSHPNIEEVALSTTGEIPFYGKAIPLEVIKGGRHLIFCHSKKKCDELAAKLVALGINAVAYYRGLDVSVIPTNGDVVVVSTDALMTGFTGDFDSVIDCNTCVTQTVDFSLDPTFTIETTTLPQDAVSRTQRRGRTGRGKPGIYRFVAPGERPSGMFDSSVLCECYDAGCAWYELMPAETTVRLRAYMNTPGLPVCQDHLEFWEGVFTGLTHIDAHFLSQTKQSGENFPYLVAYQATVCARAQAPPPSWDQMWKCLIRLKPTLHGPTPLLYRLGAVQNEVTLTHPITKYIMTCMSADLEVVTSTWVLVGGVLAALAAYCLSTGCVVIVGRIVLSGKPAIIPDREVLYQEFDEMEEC

Each compound was assayed against full-length hepatitis C viral protein NS3•4A (Hepatitis C virus genotype 1a, UniProt P27958) (assay: HCV NS3 Peptide Cleavage Assay (Enzyme Assay 2), apparent Ki). Conditions: read-out: Enzyme Assay 2 (HCV NS3 Peptide Cleavage Assay) activity; apparent Ki class.
Text: Using standard recombinant DNA techniques, a cDNA fragment encoding the sequence for NS3 and NS4A, residues Ala1027 to Cys1711 from the HCV sub-type strain 1a, containing an N-terminal hexa-histidine sequence, was cloned into the baculoviral transfer vector pVL1392 (Webb N R and Summers M D (1990) Expression of proteins using recombinant baculoviruses, Techniques 2:173-188). […] The transfected insect cells containing recombinant baculovirus clones were subsequently isolated by plaque purification. High-titer clonal baculovirus was routinely used to infect SD insect cells for protein production. In production, Sf9 cells were grown at 27° C. until they reached a density of 2.0×10^6 cells/ml. At this point, the insect cells were infected with virus. After 72 hours or when the cell viability was between 70-80% the culture was harvested and the cells were ready for purification. The NS3•4A protein (SEQ ID NO:1) was purified as follows. Cell paste was thawed in at least five volumes of Lysis Buffer (50 mM Na2HPO4 pH 8.0, 10% Glycerol, 300 mM NaCl, 5 mM β-mercaptoethanol, 0.2 mM PMSF, 2.5 μg/ml Leupeptin, 1.0 μg/mlE64, 2.0 μg/ml Pepstatin) per gram of cell paste. The cell paste was then homogenized on ice using a Dounce homogenizer. The cells were next mechanically disrupted by passing once through a microfluidizer (Microfluidics Corporation, Newton, Mass.), and the cell lysate was collected on ice. The cell lysates was centrifuged at 100,000×g for 30 minutes at 4° C. and the supernatants were decanted. Optionally, the pellets were resuspended in wash buffer (Lysis Buffer+0.1% β-octyl glucopyranoside), homogenized using a Dounce homogenizer and centrifuged at 100,000×g for 30 minutes at 4° C. Insoluble NS3° 4A was extracted from the pellets by resuspending in Extraction Buffer (Lysis Buffer+0.5% lauryl maltoside) using 2.5 ml/g cell paste. The mixture was homogenized using a Dounce homogenizer and mixed at 4° C. for three hours or more. The mixture was centrifuged at 100,000×g for 30 minutes at 4° C. The supernatants were decanted and pooled. The NS3•4A protein was further purified using Nickel-NTA metal affinity chromatography. Imidazole from a 2 M stock, pH 8.0, solution was added to the pooled supernatants so that the final concentration of imidazole was 10 mM. The supernatants were incubated batchwise overnight at 4° C. with Nickel-NTA affinity resin that had been pre-equilibrated with Lysis Buffer+10 mM imidazole. 1 ml of resin per 5 μg of expected NS3-4A was used. The resin was next settled by gravity or by centrifugation at 500×g for five minutes. The resin was next poured into a gravity flow column and washed with 10 or more column volumes of Nickel Wash Buffer (Lysis Buffer+0.1% lauryl maltoside+10 mM imidazole). The column was next eluted with three to four column volumes of Nickel Elution Buffer (Nickel Wash Buffer+300 mM imidazole). The elution fractions were collected on ice and evaluated using SDS-PAGE. To prevent NS3-4A proteolysis, 100 μM DFP protease inhibitor was added to gel samples before adding SDS sample buffer and boiling. The peak fractions were pooled and protein concentration was determined by measuring absorbance at 280 ηm and by dividing by the extinction coefficient (e), which for NS3•4A is 1.01. The NS3•4A was purified further using gel filtration chromatography. A Superdex 200 26/60 column was equilibrated with Superdex Buffer (20 mM HEPES pH 8.0, 10% glycerol, 300 mM NaCl, 10 mM β-mercaptoethanol, 0.05% lauryl maltoside) at a rate of 3 ml/min. The nickel purified NS3•4A was concentrated in a Centriprep 30 to greater than 2 mg/ml, if necessary, and was filtered through a 0.2 μm syringe filter and up to 10 ml was loaded onto the Superdex 200 column. After 0.3 column volumes passed through, 4-5 ml fractions were collected. Fractions were evaluated by SDS-PAGE. NS3•4A protein elutes in two peaks. Peak 1 contains aggregated NS3•4A and peak 2 contains active protein. The fractions of peak 2 were pooled, aliquoted and frozen at −70° C. […]

SMILES	Ki
CCC[C@H](NC(=O)[C@@H]1C[C@]2(CC(c3cc(C)c(OCC)c(Cl)c3)=NO2)CN1C(=O)[C@@H](NC(=O)OC(C)(C)C)C(C)(C)C)C(=O)C(=O)NC1CC1	< 100 nM
CCC[C@H](NC(=O)[C@@H]1C[C@]2(CC(c3cc(C)c(OC)c(C)c3)=NO2)CN1C(=O)[C@@H](NC(=O)OC1CCCC1)C(C)(C)C)C(=O)C(=O)NC	< 100 nM
COc1c(C)cc(C2=NO[C@]3(C2)C[C@@H](C(=O)N[C@@H](CC2CC2)C(=O)C(N)=O)N(C(=O)[C@@H](NC(=O)OC2CCCC2)C(C)(C)C)C3)cc1C	< 100 nM
COc1cc(OC)c(C2=NO[C@]3(C2)C[C@@H](C(=O)N[C@@H](CC2CC2)C(=O)C(N)=O)N(C(=O)[C@@H](NC(=O)[C@H]2C[C@@H]2c2ccccc2)C(C)(C)C)C3)cc1Cl	< 100 nM
CCC[C@H](NC(=O)[C@@H]1C[C@]2(CC(c3nccc4ccccc34)=NO2)CN1C(=O)[C@@H](NC(=O)CC1CCCCC1)C(C)(C)C)C(=O)C(=O)NC	100 to 500 nM
CCC[C@H](NC(=O)[C@@H]1C[C@]2(CC(c3cc(C)c(OCC)c(Cl)c3)=NO2)CN1C(=O)[C@@H](NC(=O)OC1CCCC1)C(C)(C)C)C(=O)C(=O)NC1CC1	100 to 500 nM
CCC[C@H](NC(=O)[C@@H]1C[C@]2(CC(c3cc(C)c(OC)c(C)c3)=NO2)CN1C(=O)[C@@H](NC(=O)CC1CCCCC1)C(C)(C)OC)C(=O)C(=O)NC1CC1	< 100 nM
CCC[C@H](NC(=O)[C@@H]1C[C@]2(CC(c3cc(Cl)ccc3OC)=NO2)CN1C(=O)[C@@H](NC(=O)OC(C)(C)C)C(C)(C)C)C(=O)C(=O)NC1CC1	< 100 nM
CCC[C@H](NC(=O)[C@@H]1C[C@]2(CC(c3nccc4ccccc34)=NO2)CN1C(=O)[C@@H](NC(=O)CC1CCCCC1)C(C)(C)C)C(=O)C(=O)NC1CC1	< 100 nM
CCC[C@H](NC(=O)[C@@H]1C[C@]2(CC(c3cc(Cl)ccc3OC)=NO2)CN1C(=O)[C@@H](NC(=O)CC(F)(F)F)C(C)(C)C)C(=O)C(=O)NC1CC1	< 100 nM
COc1c(C)cc(C2=NO[C@]3(C2)C[C@@H](C(=O)N[C@@H](CC2CC2)C(=O)C(=O)NC2CC2)N(C(=O)[C@@H](NC(=O)OC2CCCC2)C(C)(C)C)C3)cc1C	< 100 nM
CNC(=O)C(=O)[C@H](CC1CC1)NC(=O)[C@@H]1C[C@]2(CC(c3cc(Cl)c(OC)cc3OC)=NO2)CN1C(=O)[C@@H](NC(=O)[C@H]1C[C@@H]1c1ccccc1)C(C)(C)C	< 100 nM
COc1cc(OC)c(C2=NO[C@]3(C2)C[C@@H](C(=O)N[C@@H](CC2CC2)C(=O)C(=O)NC2CC2)N(C(=O)[C@@H](NC(=O)OC2CCCC2)C(C)(C)C)C3)cc1Cl	< 100 nM
CCC[C@H](NC(=O)[C@@H]1C[C@]2(CC(c3cc(Cl)c(OC)cc3OC)=NO2)CN1C(=O)[C@@H](NC(=O)CC1CCCCC1)C(C)(C)C)C(=O)C(=O)NC	< 100 nM
CNC(=O)C(=O)[C@H](CC1CC1)NC(=O)[C@@H]1C[C@]2(CC(c3cccc(Cl)c3)=NO2)CN1C(=O)[C@@H](NC(=O)[C@@H]1C[C@H]1C(C)C)C(C)(C)C	< 100 nM

Same assay, conditions: read-out: Enzyme Assay 2; HCV NS3 Peptide Cleavage Assay, apparent Ki

SMILES	Ki
CNC(=O)C(=O)[C@H](CC1CC1)NC(=O)[C@@H]1C[C@]2(CC(c3cccc(Cl)c3)=NO2)CN1C(=O)[C@@H](NC(=O)[C@H]1C[C@@H]1C1CCCCC1)C(C)(C)C	100 to 500 nM
CCC[C@H](NC(=O)[C@@H]1C[C@]2(CC(c3cc(C)c(OCC)c(C)c3)=NO2)CN1C(=O)[C@@H](NC(=O)OC(C)(C)C)C(C)(C)C)C(=O)C(N)=O	< 100 nM
CCC[C@H](NC(=O)[C@@H]1C[C@]2(CC(c3cc(C)c(OCC)c(Cl)c3)=NO2)CN1C(=O)[C@@H](NC(=O)CC1CCCCC1)C(C)(C)C)C(=O)C(=O)NC	100 to 500 nM
CNC(=O)C(=O)[C@H](CC1CC1)NC(=O)[C@@H]1C[C@]2(CC(c3cc(C)c(OC)c(Cl)c3)=NO2)CN1C(=O)[C@@H](NC(=O)[C@@H]1C[C@H]1c1ccccc1)C(C)(C)C	< 100 nM
CCNC(=O)C(=O)[C@H](CC1CC1)NC(=O)[C@@H]1C[C@]2(CC(c3cc(Cl)c(OC)cc3OC)=NO2)CN1C(=O)[C@@H](NC(=O)[C@@H]1C[C@H]1c1ccccc1)C(C)(C)C	< 100 nM
CCC[C@H](NC(=O)[C@@H]1C[C@]2(CC(c3cccc(Cl)c3)=NO2)CN1C(=O)[C@@H](NC(=O)[C@@H]1CC12CCOCC2)C(C)(C)C)C(=O)C(N)=O	< 100 nM
COc1cc(OC)c(C2=NO[C@]3(C2)C[C@@H](C(=O)N[C@@H](CC2CC2)C(=O)C(N)=O)N(C(=O)[C@@H](NC(=O)CC2CCCCC2)C(C)(C)C)C3)cc1C	< 100 nM
CCOc1c(C)cc(C2=NO[C@]3(C2)C[C@@H](C(=O)N[C@@H](CC2CC2)C(=O)C(N)=O)N(C(=O)[C@@H](NC(=O)[C@@H]2C[C@H]2c2ccccc2)C(C)(C)C)C3)cc1C	< 100 nM
CCC[C@H](NC(=O)[C@@H]1C[C@]2(CC(c3cc(Cl)c(OC)cc3OC)=NO2)CN1C(=O)[C@@H](NC(=O)[C@@H]1C[C@H]1c1ccccc1)C(C)(C)C)C(=O)C(=O)NC	< 100 nM
CCC[C@H](NC(=O)[C@@H]1C[C@]2(CC(c3cncnc3)=NO2)CN1C(=O)[C@@H](NC(=O)CC1CCCCC1)C(C)(C)C)C(=O)C(=O)NC1CC1	> 500 nM
CCC[C@H](NC(=O)[C@@H]1C[C@]2(CC(c3cc(Cl)c(OC)cc3OCC)=NO2)CN1C(=O)[C@@H](NC(=O)CC1CCCCC1)C(C)(C)C)C(=O)C(=O)NC1CC1	< 100 nM
CCNC(=O)C(=O)[C@H](CC1CC1)NC(=O)[C@@H]1C[C@]2(CC(c3cccc(Cl)c3)=NO2)CN1C(=O)[C@@H](NC(=O)OC1CCCC1)C(C)(C)C	< 100 nM
COc1c(C)cc(C2=NO[C@]3(C2)C[C@@H](C(=O)N[C@@H](CC2CC2)C(=O)C(N)=O)N(C(=O)[C@@H](NC(=O)[C@@H]2C[C@H]2c2ccccc2)C(C)(C)C)C3)cc1C	< 100 nM
CCC[C@H](NC(=O)[C@@H]1C[C@]2(CC(c3cc(C)c(OCC)c(Cl)c3)=NO2)CN1C(=O)[C@@H](NC(=O)[C@@H]1C[C@H]1c1ccccc1)C(C)(C)C)C(=O)C(=O)NC	< 100 nM
CNC(=O)C(=O)[C@H](CC1CC1)NC(=O)[C@@H]1C[C@]2(CC(c3cccc(Cl)c3)=NO2)CN1C(=O)[C@@H](NC(=O)[C@H]1C[C@@H]1c1ccccn1)C(C)(C)C	100 to 500 nM
CCC[C@H](NC(=O)[C@@H]1C[C@]2(CC(c3cc(C)c(OCC)c(C)c3)=NO2)CN1C(=O)[C@@H](NC(=O)[C@@H]1C[C@H]1c1ccccc1)C(C)(C)C)C(=O)C(=O)NC1CC1	< 100 nM
CNC(=O)C(=O)[C@H](CC1CC1)NC(=O)[C@@H]1C[C@]2(CC(c3cccc(Cl)c3)=NO2)CN1C(=O)[C@@H](NC(=O)[C@H]1CC12CCOCC2)C(C)(C)C	< 100 nM
CCOc1c(C)cc(C2=NO[C@]3(C2)C[C@@H](C(=O)N[C@@H](CC2CC2)C(=O)C(=O)NC)N(C(=O)[C@@H](NC(=O)OC(C)(C)C)C(C)(C)C)C3)cc1Cl	< 100 nM
CCC[C@H](NC(=O)[C@@H]1C[C@]2(CC(c3cccc(Cl)c3)=NO2)CN1C(=O)[C@@H](NC(=O)c1noc2c1CCCC2)C(C)(C)C)C(=O)C(=O)NC1CC1	< 100 nM
CNC(=O)C(=O)[C@H](CC1CC1)NC(=O)[C@@H]1C[C@]2(CC(c3cc(C)c(OC)c(C)c3)=NO2)CN1C(=O)[C@@H](NC(=O)[C@@H]1C[C@H]1c1c[nH]cn1)C(C)(C)C	100 to 500 nM
CCC[C@H](NC(=O)[C@@H]1C[C@]2(CC(N3CCCCC3)=NO2)CN1C(=O)[C@@H](NC(=O)OC1CCCC1)C(C)(C)C)C(=O)C(=O)NC1CC1	100 to 500 nM
CCOc1c(C)cc(C2=NO[C@]3(C2)C[C@@H](C(=O)N[C@@H](CC2CC2)C(=O)C(=O)NC)N(C(=O)[C@@H](NC(=O)OC(C)(C)C)C(C)(C)C)C3)cc1C	< 100 nM
CCC[C@H](NC(=O)[C@@H]1C[C@]2(CC(c3cc(C)c(O)c(C)c3)=NO2)CN1C(=O)[C@@H](NC(=O)CC1CCCCC1)C(C)(C)C)C(=O)C(=O)NC1CC1	< 100 nM
